In article PMC8941942, “Functional and Structural Characterization of Diverse NfsB Chloramphenicol Reductase Enzymes from Human Pathogens” (Microbiology Spectrum, 2022):

What was measured:
Hi Int1 NfsB = experiment: NADPH oxidation at […] nm, Michaelis-Menten fit; assay type: biochemical, Haemophilus influenzae; conditions: read-out: Km (μM)^a; apparent; 1 mM NADPH, 1 µM FMN, 50 mM Tris pH 8, ~23°C
Hi 12 NfsB = experiment: NADPH oxidation at […] nm, Michaelis-Menten fit; assay type: biochemical, Haemophilus influenzae; conditions: read-out: Km (μM)^a; apparent; 1 mM NADPH, 1 µM FMN, 50 mM Tris pH 8, ~23°C

Structure (SMILES): O=C(N[C@H](CO)[C@H](O)c1ccc([N+](=O)[O-])cc1)C(Cl)Cl [chloramphenicol]
- Km (Hi Int1 NfsB): 240 µM
- Km (Hi 12 NfsB): 160 µM
